## Share of PSTVd stem 3 variants by leaf site

The pool varies stem 3 of the PSTVd intermediate strain in the pattern GUGGUUCCGNANNCNN; wild type is GUGGUUCCGGAACCGC (upper and lower strand joined, each 5' to 3', the first 8 letters being the upper strand).

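Three N. benthamiana plants were inoculated with the whole mutant pool. Progeny were sequenced from the inoculated region (day 5), the margin of the inoculated leaf (day 10) and systemic leaves (day 12).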

Values are reads per thousand in the sample; higher means more abundant, 0 means not found.
Each site shows the three plants.
"Pool" is the share in the plasmid pool used as inoculum, on the same scale.
The inoculated region was read from the minus strand, the other sites from the plus strand.
With 27,691-54,225 reads a sample, very low values are single reads.
Sequences that differ at fixed positions probably stem from PCR or sequencing errors, and defective variants can be carried along by functional ones.
For reference, wild type rose from 17.3 per thousand in the pool to 330, 345, 235 (inoculated region), 794, 766, 816 (leaf margin) and 830, 792, 869 (systemic leaves).

sequence | pool | inoculated region | leaf margin | systemic leaves
GUGGUUCCGCACCCAA | 0.723 | 0.213 0.388 0.243 | 0 0 0 | 0 0 0
GUGGUUCCGCACCCAC | 0.631 | 0.267 0.323 0.243 | 0 0 0.0361 | 0 0 0
GUGGUUCCGCACCCAG | 0.677 | 0.426 0.410 0.189 | 0 0 0 | 0 0 0
GUGGUUCCGCACCCAU | 0.769 | 0.853 0.647 0.919 | 0 0 0.181 | 0 0 0
GUGGUUCCGCACCCCA | 0.908 | 0.400 0.345 0.0811 | 0 0 0 | 0 0 0
GUGGUUCCGCACCCCC | 0.862 | 0.400 0.280 0.378 | 0.0283 0 0.0361 | 0 0 0
GUGGUUCCGCACCCCG | 0.877 | 0.293 0.431 0.162 | 0.0283 0 0.0361 | 0 0 0
GUGGUUCCGCACCCCU | 0.693 | 0.187 0.173 0.162 | 0 0 0 | 0 0 0
GUGGUUCCGCACCCGA | 0.846 | 0.453 0.474 0.243 | 0 0.0318 0 | 0 0 0
GUGGUUCCGCACCCGC | 0.754 | 0.506 0.173 0.378 | 0 0 0.0361 | 0 0 0
GUGGUUCCGCACCCGG | 0.831 | 0.133 0.323 0.189 | 0.0283 0 0 | 0 0 0
GUGGUUCCGCACCCGU | 0.816 | 0.426 0.302 0.189 | 0 0 0 | 0 0 0
GUGGUUCCGCACCCUA | 1.18 | 0.426 0.302 0.324 | 0 0.0318 0 | 0 0.0184 0
GUGGUUCCGCACCCUC | 1.00 | 0.373 0.431 0.270 | 0 0 0 | 0 0 0
GUGGUUCCGCACCCUG | 1.02 | 0.347 0.496 0.297 | 0.0283 0 0 | 0 0 0
GUGGUUCCGCACCCUU | 0.877 | 0.187 0.280 0.0811 | 0 0.0318 0 | 0 0 0
GUGGUUCCGCACGCAA | 0.862 | 0.320 0.259 0.162 | 0 0 0 | 0 0 0
GUGGUUCCGCACGCAC | 0.739 | 0.267 0.410 0.351 | 0 0.0318 0 | 0 0 0
GUGGUUCCGCACGCAG | 0.708 | 0.347 0.302 0.243 | 0 0 0 | 0 0 0
GUGGUUCCGCACGCAU | 0.754 | 0.853 0.712 0.784 | 0 0.0318 0.361 | 0 0 0
GUGGUUCCGCACGCCA | 0.693 | 0.267 0.302 0.108 | 0 0 0.0361 | 0 0 0
GUGGUUCCGCACGCCC | 0.970 | 0.293 0.367 0.486 | 0 0 0.108 | 0 0 0
GUGGUUCCGCACGCCG | 0.662 | 0.293 0.345 0.189 | 0.0283 0 0 | 0 0 0
GUGGUUCCGCACGCCU | 1.15 | 0.560 0.474 0.351 | 0 0 0.0361 | 0 0 0
GUGGUUCCGCACGCGA | 1.03 | 0.373 0.302 0.270 | 0.0283 0 0 | 0 0 0
GUGGUUCCGCACGCGC | 0.800 | 0.453 0.302 0.189 | 0.0567 0 0.0361 | 0 0 0
GUGGUUCCGCACGCGG | 1.02 | 0.480 0.345 0.162 | 0 0.0318 0 | 0 0 0
GUGGUUCCGCACGCGU | 0.785 | 0.426 0.280 0.297 | 0.0283 0.0318 0.0361 | 0 0 0
GUGGUUCCGCACGCUA | 0.970 | 0.453 0.474 0.513 | 0 0 0 | 0 0.0184 0
GUGGUUCCGCACGCUC | 0.800 | 0.480 0.302 0.324 | 0 0 0.0361 | 0 0 0
GUGGUUCCGCACGCUG | 0.785 | 0.373 0.388 0.270 | 0 0 0 | 0 0 0
GUGGUUCCGCACGCUU | 0.569 | 0.267 0.496 0.270 | 0 0 0 | 0 0 0
GUGGUUCCGCACUCAA | 0.708 | 0.693 0.884 1.05 | 0 0 0.289 | 0 0 0
GUGGUUCCGCACUCAC | 0.846 | 0.666 0.539 0.676 | 0.0283 0.0318 0 | 0 0 0
GUGGUUCCGCACUCAG | 0.908 | 1.01 0.647 0.973 | 0 0 0.0722 | 0 0 0
GUGGUUCCGCACUCAU | 0.862 | 0.826 0.992 1.11 | 0.255 1.05 0.939 | 0 0 0
GUGGUUCCGCACUCCA | 0.877 | 0.426 0.280 0.135 | 0 0.0318 0 | 0 0 0
GUGGUUCCGCACUCCC | 1.06 | 0.426 0.668 0.270 | 0.0283 0 0 | 0.224 0.0184 0.0243
GUGGUUCCGCACUCCG | 1.32 | 0.533 0.496 0.622 | 0 0 0.0722 | 0.0746 0.0922 0.0243
GUGGUUCCGCACUCCU | 0.739 | 0.693 0.798 0.676 | 0 0.0318 0.253 | 0 0 0
GUGGUUCCGCACUCGA | 1.09 | 0.240 0.216 0.243 | 0 0 0.0361 | 0 0 0
GUGGUUCCGCACUCGC | 2.31 | 0.693 0.647 0.676 | 0 0.604 0 | 0.205 0.0738 0.0243
GUGGUUCCGCACUCGG | 0.893 | 0.320 0.388 0.135 | 0 0 0 | 0 0 0
GUGGUUCCGCACUCGU | 1.46 | 1.04 0.927 0.973 | 0 0 0.0361 | 0.0746 0 0
GUGGUUCCGCACUCUA | 0.631 | 0.320 0.280 0.216 | 0 0.0318 0 | 0 0 0
GUGGUUCCGCACUCUC | 1.54 | 0.613 0.518 0.649 | 0.0283 0.0636 0.0361 | 0.0559 0 0
GUGGUUCCGCACUCUG | 0.908 | 0.347 0.323 0.351 | 0 0 0 | 0 0 0
GUGGUUCCGCACUCUU | 0.631 | 0.533 0.863 0.622 | 0 0 0.361 | 0 0 0
GUGGUUCCGCAGACAA | 0.893 | 0.800 0.712 0.919 | 0 0 0 | 0 0 0
GUGGUUCCGCAGACAC | 0.939 | 0.933 0.668 0.730 | 0 0 0 | 0 0 0
GUGGUUCCGCAGACAG | 0.785 | 0.773 0.647 0.513 | 0 0 0.433 | 0 0 0
GUGGUUCCGCAGACAU | 0.677 | 0.800 0.776 1.08 | 0 1.02 0.325 | 0 0 0
GUGGUUCCGCAGACCA | 0.877 | 0.453 0.237 0.432 | 0 0.0318 0 | 0 0 0
GUGGUUCCGCAGACCC | 0.754 | 0.453 0.367 0.189 | 0 0 0 | 0 0 0
GUGGUUCCGCAGACCG | 0.693 | 0.506 0.216 0.297 | 0 0 0.0361 | 0 0 0
GUGGUUCCGCAGACCU | 0.754 | 0.720 0.776 0.703 | 0 0.0318 0.289 | 0 0 0
GUGGUUCCGCAGACGA | 0.893 | 0.400 0.431 0.270 | 0 0.0318 0 | 0 0 0
GUGGUUCCGCAGACGC | 0.877 | 0.560 0.302 0.216 | 0 0 0 | 0 0.0553 0
GUGGUUCCGCAGACGG | 0.846 | 0.506 0.302 0.243 | 0 0.0636 0.0361 | 0 0 0
GUGGUUCCGCAGACGU | 0.862 | 1.23 1.21 1.32 | 0.0283 0 0 | 0 0 0
GUGGUUCCGCAGACUA | 0.923 | 0.400 0.194 0.216 | 0.0283 0.0318 0 | 0 0 0
GUGGUUCCGCAGACUC | 0.831 | 0.267 0.431 0.135 | 0.0283 0.0318 0 | 0 0 0
GUGGUUCCGCAGACUG | 0.908 | 0.240 0.388 0.216 | 0 0 0.0361 | 0.0186 0 0
GUGGUUCCGCAGACUU | 0.877 | 1.04 0.992 1.49 | 0 0 0 | 0 0 0
GUGGUUCCGCAGCCAA | 0.677 | 0.666 0.798 0.946 | 0.0283 0 0.578 | 0 0 0
GUGGUUCCGCAGCCAC | 0.769 | 0.533 0.712 0.757 | 0 0 0.578 | 0 0 0
GUGGUUCCGCAGCCAG | 0.631 | 0.586 0.604 1.05 | 0.0283 0 0.289 | 0 0 0
GUGGUUCCGCAGCCAU | 0.769 | 1.01 0.927 0.811 | 0 1.24 0.469 | 0 0 0

From the data files of Wu et al. 2024, doi:10.1371/journal.ppat.1012142.